PubChem BioAssay AID504761 | Drosophila RNAi Screening Center, 2011
Aim: 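Genome-wide fly cell screen for genes dengue virus requires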 (primary screen). Cells: D.Mel-2 cells from Drosophila. Reagent: long dsRNA against Drosophila genes. Challenge: infection with dengue virus type 2; dose and infection time not stated. Measurement: 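Cells stained for dengue envelope protein and imaged; percent of infected cells per well on duplicate plates, ranked by infection, with stained nuclei counted for cell number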. Reading the numbers: infection score: higher = more virus-infected cells; cell count: higher = more cells in the well. Hit rule: 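Low infection ranks in the two replicates (chance level up to 0.065) followed by a retest with a 1.5-fold or larger significant decrease, p below 0.05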. Meaning of the calls: active = confirmed: knock-down lowers infection; inactive = not picked or not confirmed.
The deposit covers about 22,000 reagents; this is a random part of those with a known target gene and a result. Over the whole deposit, 116 (0.52%) are marked active. 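Calls depend on retest data that are not deposited; infection was ranked per plate without normalising between plates; the unit of the infection score is not given.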 Raw values are not corrected between plates. Unmarked entries are inactive. Names joined by + are all predicted targets of the reagent. The record does not give: the amount of reagent, the time to read-out.

| gene | DRSC id | infection score, replicate 1 | infection score, replicate 2 | cell count, replicate 1 | cell count, replicate 2 |
| --- | --- | --- | --- | --- | --- |
| aralar1 | DRSC13987 | 7.33 | 3.5 | 6112 | 6391 |
| aralar1 | DRSC16901 | 9.34 | 8.28 | 6583 | 6800 |
| aralar1 | DRSC29693 | 7.09 | 7.13 | 6250 | 5833 |
| NimB2 | DRSC22645 | 4.45 | 2.05 | 6783 | 6747 |
| CG18542 + CG32939 | DRSC15342 | 7.7 | 18.7 | 6558 | 6316 |
| CG8204 | DRSC07106 | 6.81 | 2.53 | 6802 | 6720 |
| Ir20a | DRSC20506 | 3.9 | 0.43 | 6633 | 6709 |
| D12 | DRSC03311 | 1.62 | 13.9 | 6465 | 4804 |
| nAChRbeta3 | DRSC00325 | 3.04 | 1.22 | 6191 | 6537 |
| CG17267 | DRSC15207 | 1.33 | 1.55 | 6532 | 6126 |
| CG32762 | DRSC18298 | 22 | 17.6 | 5767 | 3151 |
| CG32762 | DRSC24339 | 1.21 | 5.53 | 5880 | 5586 |
| CG43367 + CG32252 (retired record) | DRSC21715 | 13.3 | 6.08 | 6462 | 5836 |
| fwe | DRSC10594 | 14.8 | 6.64 | 5822 | 5934 |
| fwe | DRSC21400 | 4.97 | 3.13 | 5071 | 5654 |
| CG4730 | DRSC15633 | 8.85 | 7.55 | 5300 | 1113 |
| CG4730 | DRSC24561 | 4.85 | 5.56 | 6078 | 6046 |
| UQCR-6.4 | DRSC06454 | 19.1 | 19.3 | 5652 | 6617 |
| UQCR-6.4 | DRSC28738 | 23.5 | 33.1 | 5824 | 4746 |
| SmydA-4 | DRSC19390 | 2 | 7.31 | 6917 | 6461 |
| SmydA-4 | DRSC21866 | 5.07 | 5.42 | 6748 | 6888 |
| SmydA-4 | DRSC26517 | 1.83 | 0.56 | 5948 | 6416 |
| RFeSP | DRSC00702 | 4 | 6.86 | 6328 | 6778 |
| RFeSP | DRSC27607 | 10 | 9.02 | 5649 | 5265 |
| CG15233 | DRSC04967 | – | 28.7 | 26 | 5735 |
| Gr36a | DRSC22663 | 6.75 | 2.88 | 6816 | 6595 |
| Gr36a | DRSC27724 | 4.38 | 12.9 | 6444 | 6257 |
| Rab9D + Rab9E + Rab9Db + 1 more | DRSC27303 | 20.2 | 3.19 | 5621 | 6525 |
| CG7341 | DRSC10818 | 1.72 | 9.83 | 6295 | 5877 |
| CG33502 + CG32857 + CG32500 | DRSC20817 | 1.2 | 5.2 | 6406 | 6768 |
| CG33502 + CG32857 + CG32500 | DRSC21038 | 2.34 | 0.97 | 5728 | 5790 |
| Wdr81 | DRSC02985 | 10.5 | 11.9 | 6169 | 6131 |
| Wdr81 | DRSC27272 | 4.18 | 3.7 | 6790 | 6387 |
| CG8132 | DRSC16383 | 8.56 | 4.65 | 6417 | 7405 |
| CG13884 | DRSC08354 | 1.44 | 7.23 | 6333 | 6102 |
| CG1416 | DRSC03706 | 9 | 25.7 | 6433 | 5523 |
| TRAM | DRSC18178 | 4.36 | 10.5 | 2319 | 5107 |
| TRAM | DRSC18651 | – | 15.9 | 366 | 3733 |
| Hmg-2 | DRSC04554 | 18.1 | 9.51 | 6016 | 6049 |
| Hmg-2 | DRSC25355 | 4.03 | 9.68 | 6942 | 6230 |
| CG9330 | DRSC11066 | 1.76 | 4.52 | 6360 | 6130 |
| CG9330 | DRSC29449 | 14 | 18.1 | 5472 | 5092 |
| CG14694 | DRSC14917 | 2.38 | 2.44 | 6059 | 6236 |
| shg | DRSC04714 | 13.6 | 9.29 | 6625 | 6897 |
| shg | DRSC27751 | 34 | 3.62 | 5824 | 6606 |
| CG8420 | DRSC16418 | 1.73 | 7.86 | 6463 | 6448 |
| Samuel | DRSC21731 | 36.2 | 6.85 | 4245 | 6174 |
| Samuel | DRSC23114 | 1.22 | 0.27 | 6665 | 7095 |
| sti | DRSC09739 | 2.84 | 0.53 | 2534 | 2836 |
| sti | DRSC09740 | 2.13 | 4.31 | 2344 | 2482 |
| CG31109 | DRSC14648 | 7.65 | 3.7 | 5935 | 540 |
| CG11975 | DRSC14452 | 4.5 | 10.6 | 6684 | 6903 |
| vg | DRSC07715 | 2.33 | 1.34 | 6837 | 6797 |
| vg | DRSC22669 | 11.2 | 27 | 7123 | 5522 |
| vg | DRSC29857 | 19.6 | 6.88 | 6337 | 6483 |
| CG17721 | DRSC15253 | 1.47 | 4.66 | 6537 | 6886 |
| CG7044 | DRSC16180 | 5.48 | 9.95 | 2264 | 2763 |
| CG13625 | DRSC14627 | 3.34 | 14.3 | 5635 | 5678 |
| ScpX | DRSC03430 | 17.9 | 8.64 | 6127 | 5981 |
| Rad60 | DRSC15580 | 1.26 | 3.94 | 6434 | 6315 |
| Dgk | DRSC05064 | 1.91 | 0.34 | 6073 | 5805 |
| Dgk | DRSC05065 | 1.44 | 4.69 | 6118 | 5796 |
| Dgk | DRSC06171 | 15.2 | 23 | 5895 | 4289 |
| Dgk | DRSC06782 | 1.59 | 7.98 | 6395 | 6476 |
| Dgk | DRSC25166 | 3.57 | 7.54 | 6355 | 5888 |
| Nep1 | DRSC18388 | 3.48 | 12.3 | 6067 | 1978 |
| Nep1 | DRSC26208 | 8.85 | 7.65 | 6000 | 6155 |
| zen | DRSC12632 | 0.65 | 6.99 | 6620 | 6477 |
| zen | DRSC23673 | 2.08 | 2.4 | 6206 | 6578 |
| Polr1B | DRSC00780 | 2.95 | 4.11 | 5588 | 6079 |
| Ugt37E1 | DRSC02248 | – | 1.73 | 504 | 1214 |
| Ugt37E1 | DRSC24769 | 2.38 | 2.77 | 5971 | 6686 |
| ATPsynGL | DRSC03027 | 3.66 | 1.46 | 5896 | 6796 |
| ATPsynGL | DRSC28550 | 17.5 | 13.5 | 5286 | 5089 |
